The chains behind the UniProt entries cited, without tags or fusion partners. Residues count along the entry.
UniProt A0A5K1K910, 37-375 limits assumed: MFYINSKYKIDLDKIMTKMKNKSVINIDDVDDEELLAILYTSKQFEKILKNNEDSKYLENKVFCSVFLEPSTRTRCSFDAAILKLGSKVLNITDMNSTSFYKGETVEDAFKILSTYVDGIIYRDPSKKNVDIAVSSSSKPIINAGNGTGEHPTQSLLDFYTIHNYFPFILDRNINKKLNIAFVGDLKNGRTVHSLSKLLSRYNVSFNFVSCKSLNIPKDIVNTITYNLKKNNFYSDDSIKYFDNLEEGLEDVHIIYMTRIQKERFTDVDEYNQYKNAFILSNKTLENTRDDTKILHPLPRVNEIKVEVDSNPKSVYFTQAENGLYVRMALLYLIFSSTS

According to PMC9585585, “Discovery of Small-Molecule Allosteric Inhibitors of PfATC as Antimalarials” (Journal of the American Chemical Society, 2022):

How the values were obtained:
PfATC [1] = target: T1, PfATC (Plasmodium falciparum, UniProt A0A5K1K910); details: read-out: IC50 against PfATC; in vitro enzyme assay, PfATC 50 nM, n = 3
PfATC [2] = target: T1, PfATC; test: Differential scanning fluorimetry (DSF); format: binding; details: PfATC 5 µM
Description: 464Data collection, processing and refinement. All the diffraction data sets were collected using
465synchrotron radiation wavelength 1.033200 Å at DESY beamline P11. The data collected for
466PfATC crystals grown in presence of fragments and compounds were processed using XDSAPP 25
467and Aimless 26, and the structures were solved and initially refined using the DIMPLE pipeline
468within CCP4 suite 26 with coordinates of the unliganded PfATC (5ILQ) as a starting model. The
469final refinement included manual rebuilding in coot 27 and Refmac5 28. The resulting crystal
470structures were deposited in PDB 29. Data collection and processing statistics are show in Table
472Differential Scanning Fluorimetry (DSF). The purified PfATC was incubate with 5000 × Sypro
473Orange (Invitrogen) and dilution it to 1:400 stock of dye in assay buffer (50 mM Tris-HCl pH =8.0
474and 300 mM NaCl). Each reaction consisted of 2 µL compound (10 mM stock in 100% DMSO), 5
475µL PfATC-Sypro orange mixture and 43 µL assay buffer. Final protein assay concentration was
4765µM, final DMSO concentration war […]. After incubation for 20 min at 20 ℃, the samples
477were hated from 25℃ to 95℃ at a rate of 0.5 ℃ min -1. The inflection points of the melting curves
478were determined using BioRad CSV 96 control software and processed & plotted by GraphPad.
479Microscale Thermophoresis (MST). […]

NOCc1ccccc1
IC50 (PfATC [1]): 125000 nM

NCCc1ccccc1
IC50 (PfATC [1]): 150000 nM

c1ccc2[nH]ccc2c1
IC50 (PfATC [1]): 145000 nM

NCc1ccc(Cl)cc1
IC50 (PfATC [1]): 10000 nM | ΔTM of PfATC (thermal stabilization) (PfATC [2]): 2.0 °C
